# Biological target: AgrA (Staphylococcus aureus, UniProt P0A0I7)
# The chains behind the UniProt entries cited, without tags or fusion partners.
# UniProt P0A0I7, whole entry: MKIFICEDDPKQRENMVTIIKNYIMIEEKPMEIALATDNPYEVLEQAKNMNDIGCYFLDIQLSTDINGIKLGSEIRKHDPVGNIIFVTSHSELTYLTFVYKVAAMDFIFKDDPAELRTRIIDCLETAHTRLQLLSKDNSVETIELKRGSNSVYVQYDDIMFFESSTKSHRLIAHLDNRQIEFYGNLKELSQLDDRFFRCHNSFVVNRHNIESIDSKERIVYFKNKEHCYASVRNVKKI
# Assay: fluorescence spectroscopy titration of Azan-7 with purified AgrA; supported by EMSA (reduced AgrA-P3 DNA complex)
structure (smiles),measurement,value
O=C(O)c1cc(-c2ccccc2)nc(-c2ccccc2)c1O,Kd,90.9 nM

# — article PMC7899991
